Results of unrelated studies side by side (data: NIAID ChemDB).

All rows: whole-cell or culture tests

An empty or dashed field is not shown. Zone: diameter of growth inhibition. Lines come from different laboratories, so protocols vary. A number after MIC or MFC names an inhibition level or a share of isolates. Percent inhibition refers to the dose given; in toxicity tests it is the harm to the cells. ECn is the concentration giving n% inhibition of infection, replication or growth.

structure	dose	method	setting	measure	species	cells	strain or isolate	value
CCN(CC)CCCC(C)Nc1ccnc2cc(Cl)ccc12	-	luciferase	-	EC50	Plasmodium berghei	HepG2	Pb1052 c11	>1.2 µM
Nc1nccc2c1ncn2[C@@H]1C[C@H](CO)[C@@H](O)[C@H]1O	-	cytopathic effect	-	EC50	Sindbis virus	VERO	-	20 µg/mL
Nc1nc(N)c2ncn(C[C@@H](CO)OCP(=O)(O)O)c2n1	-	hybridisation	-	EC90	Duck hepatitis B virus	Primary duck hepatocytes	-	0.19 µM
C=CCOc1ccc(C2CC(=O)c3c(O)cc(O)cc3O2)cc1	100 µg/mL	agar diffusion / agar	-	zone	Candida spp.	-	Candida inconspicua	0 mm
COc1ccc(-c2oc3c(CC=C(C)C)c(OC4O[C@H](CO)[C@@H](O)[C@H](O)[C@H]4O)cc(O)c3c(=O)c2O[C@@H]2O[C@@H](C)[C@H](O)[C@@H](O)[C@H]2O)cc1	-	PCR	-	EC50	SIV	CEMx174	MAC251	6.757 µM
O=C(Nc1ccc(Cl)c(Cl)c1)c1cc(Cl)ccc1OP(=O)(Oc1ccccc1)Oc1ccccc1	-	-	7 d	MIC	Mycobacterium kansasii	-	My 235/80	4 µM
Nc1nc(N)c2ncn(CCOCP(=O)(O)O)c2n1	-	plaque count	-	EC50	Mouse cytomegalovirus	C1271	WILD TYPE	0.3 µM
COc1cc(C[C@H](C)[C@H](C)Cc2ccc(O)c(O)c2)ccc1O	-	broth dilution	-	MIC80	Candida albicans	-	CCC 129-2000	31.25 µg/mL
Oc1ccc2oc3ccccc3c2c1	-	cytopathic effect	-	EC50	Rhinovirus	HELA-H1	TYPE 14	70 µM
Cc1ccc(C(=O)Nc2ccc(S(=O)(=O)O)c3cc(S(=O)(=O)O)cc(S(=O)(=O)O)c23)cc1NC(=O)c1cccc(NC(=O)Nc2cccc(C(=O)Nc3cc(C(=O)Nc4ccc(S(=O)(=O)O)c5cc(S(=O)(=O)O)cc(S(=O)(=O)O)c45)ccc3C)c2)c1	-	cytopathic effect	-	EC50	West Nile virus	VERO	NEW YORK	56 µg/mL
Nc1nc(=O)n2ccn([C@@H]3O[C@H](CO)[C@@H](O)[C@H]3O)c2n1	-	cytopathic effect	-	EC50	West Nile virus	VERO	ATCC VR-82	3 µg/mL
O=c1c2ccccc2ccc2ccccc12	20 µM	plaque count	-	inhibition	Rhinovirus	HELA-H1	TYPE 16	90%
CCN(CC)CCCC(C)Nc1ccnc2cc(Cl)ccc12	-	cytopathic effect	-	EC50	Encephalitozoon cuniculi	MRC-5 fibroblasts	-	>25 µg/mL
CN[C@@H]1[C@H](O[C@H]2[C@H](O[C@H]3[C@H](O)[C@@H](O)[C@H](N=C(N)N)[C@@H](O)[C@@H]3N=C(N)N)O[C@@H](C)[C@]2(O)C=O)O[C@@H](CO)[C@H](O)[C@H]1O	-	-	-	MIC	Klebsiella pneumoniae	-	ESBL-75799	25 µg/mL
Nc1nc2c(ncn2COCCOCP(=O)(O)O)c(=O)[nH]1	-	plaque count	-	EC50	Mouse cytomegalovirus	C1271	Foscarnet-resistant	24.3 µM
O=C(Nc1ccc(Cl)c(Cl)c1)c1cc(Cl)ccc1OP(=O)(OCc1ccccc1)OCc1ccccc1	-	-	7 d	MIC	Mycobacterium kansasii	-	My 235/80	62.5 µM
NC(=O)c1ncn([C@@H]2O[C@H](CO)[C@@H](O)[C@H]2O)n1	10 µg/mL	plaque count	-	inhibition	Respiratory syncytial virus	HEP-2	LONG	97%
CN(C)c1cc(NC(=O)CNC(C)(C)C)c(O)c2c1C[C@H]1C[C@H]3[C@H](N(C)C)C(=O)C(C(N)=O)=C(O)[C@@]3(O)C(=O)C1=C2O	-	broth dilution	-	MIC	Mycobacterium massiliense	-	V60	1 µg/mL
Nc1ccn(C[C@@H](CO)OCP(=O)(O)O)c(=O)n1	-	cytopathic effect	-	EC50	Adenovirus	-	adenoid 6 (TYPE 2)	8 µg/mL
CO[C@@H]1[C@@H](OC(N)=O)[C@@H](O)[C@H](Oc2ccc3c(O)c(NC(=O)c4ccc(O)c(CC=C(C)C)c4)c(=O)oc3c2C)OC1(C)C	-	PCR	-	EC50	Epstein-Barr virus	P3HR-1	-	46.21 µM
CCn1cc(C(=O)O)c(=O)c2cc(F)c(N3CCNCC3)cc21	-	-	-	MIC50	Haemophilus influenzae	-	44 strains	0.06 µg/mL
Nc1nccc2c1ncn2[C@@H]1C[C@H](CO)[C@@H](O)[C@H]1O	-	cytopathic effect	-	EC50	Vesicular stomatitis virus	BALB/3T3	-	300 µg/mL
O=c1[nH]cc(F)c(=O)[nH]1	-	cytopathic effect	-	EC50	Encephalitozoon cuniculi	MRC-5 fibroblasts	-	<2 µg/mL
O=C(Nc1ccc(Br)cc1)c1cc(Cl)ccc1OP(=O)(c1ccccc1)c1ccccc1	-	-	14 d	MIC	Mycobacterium kansasii	-	My 235/80	8 µM
Nc1cc2c(ncn2[C@@H]2O[C@H](CO)[C@@H](O)[C@H]2O)c(=O)[nH]1	-	cytopathic effect	-	EC50	West Nile virus	VERO	NEW YORK	>30 µg/mL
Nc1ncnc2c1ncn2[C@H]1CC[C@@H](CO)O1	10 µM	virus yield	-	inhibition	HIV-2	CEM	LAV-2	99%
C[C@H]1CN(c2c(F)cc3c(=O)c(C(=O)O)cn(C4CC4)c3c2OC(F)F)CCN1	-	-	-	MIC90	Streptococcus pneumoniae	-	30 strains	0.25 µg/mL
NC(=O)c1csc([C@@H]2O[C@H](CO)[C@@H](O)[C@H]2O)n1	-	cytopathic effect / visual reading	-	EC50	West Nile virus	VERO	NEW YORK	308 µg/mL
O=C(O)c1cc2oc3ccccc3c2cc1O	-	cytopathic effect	-	EC50	Rhinovirus	HELA-H1	TYPE 16	25 µM
NC(=O)c1c[se]c([C@@H]2O[C@H](CO)[C@@H](O)[C@H]2O)n1	-	cytopathic effect	-	EC50	Sandfly fever virus	VERO	Sicilian/Brownell	1.2 µg/mL
Nc1ncnc2c1ncn2CCOCP(=O)(O)O	-	plaque count	-	EC50	Mouse cytomegalovirus	C1271	WILD TYPE	2.3 µM
C[C@H]1COc2c(N3CCN(C)CC3)c(F)cc3c(=O)c(C(=O)O)cn1c23	-	-	-	MIC90	Staphylococcus aureus	-	25 strains (methicillin-susceptible)	0.5 µg/mL
NC(N)=NS(=O)(=O)c1ccc(N)cc1	50 µg/mL	cytopathic effect	-	inhibition	Encephalitozoon cuniculi	MRC-5 fibroblasts	-	0%
N=C(N)c1ncn([C@@H]2O[C@H](CO)[C@@H](O)[C@H]2O)n1	-	cytopathic effect	-	EC50	West Nile virus	VERO	Uganda	304 µg/mL
C[C@@]1(O)[C@H](O)[C@@H](CO)O[C@H]1c1coc2c(N)ncnc12	50 µg/mL	MTT	-	inhibition	Hepatitis C virus	HeLa-5B	-	1.07%
COc1c(N2CCNC(C)C2)c(F)cc2c(=O)c(C(=O)O)cn(C3CC3)c12	-	-	-	MIC50	Haemophilus influenzae	-	38 strains (ampicillin-susceptible)	0.008 µg/mL
COc1cc2[nH]c(C)c(-c3ccc(C(F)(F)F)cc3)c(=O)c2cc1Cl	-	luciferase	-	EC50	Plasmodium berghei	HepG2	Pb1052 c11	0.00307 µM
CC(C)=CCOc1ccc(C2CC(=O)c3c(O)cc(O)cc3O2)cc1O	100 µg/mL	agar diffusion / agar	-	zone	Candida dubliniensis	-	-	0 mm
CCc1nc(N)nc(N)c1-c1ccc(Cl)cc1	5 µg/mL	cytopathic effect	-	inhibition	Encephalitozoon cuniculi	MRC-5 fibroblasts	-	0%
CC(=O)N1CCN(c2ccc(OC[C@H]3CO[C@](Cn4ccnc4)(c4ccc(Cl)cc4Cl)O3)cc2)CC1	-	-	-	MIC	Candida albicans	-	Isogenic isolate 14 Erg11 (4-5X) R467K	0.03 µg/mL
CO[C@H]1/C=C/O[C@@]2(C)Oc3c(C)c(O)c4c(O)c(c5c(c4c3C2=O)NC2(CCN(CC(C)C)CC2)N=5)=NC(=O)/C(C)=C\C=C\[C@H](C)[C@H](O)[C@@H](C)[C@@H](O)[C@@H](C)[C@H](OC(C)=O)[C@@H]1C	-	cytopathic effect	-	EC50	Encephalitozoon cuniculi	MRC-5 fibroblasts	-	>20 µg/mL
Oc1cc(O)c2c(c1)OC(c1ccc(O)c(O)c1)[C@@H](O)C2	-	broth dilution	-	MIC50	Candida tropicalis	-	Clinical isolate 6	>128 µg/mL
CN(C)c1ccc(O)c2c1C[C@H]1C[C@H]3[C@H](N(C)C)C(=O)C(C(N)=O)=C(O)[C@@]3(O)C(=O)C1=C2O	-	broth dilution	-	MIC	Mycobacterium bolletii	-	-	>128 µg/mL
C[C@@H]1CN(c2c(F)c(N)c3c(=O)c(C(=O)O)cn(C4CC4)c3c2F)C[C@H](C)N1	-	-	-	MIC	Streptococcus pneumoniae	-	Clinical isolate RT1	4 µg/mL
Nc1nc2c(ncn2COC(CO)CO)c(=O)[nH]1	-	plaque count	-	EC50	Mouse cytomegalovirus	C1271	Ganciclovir-resistant	57 µM
C=CCc1ccc(O)c(-c2ccc(O)c(CC=C)c2)c1	-	broth dilution	-	MIC	Candida albicans	-	YL 358	64 µg/mL
CCO/N=C/c1ccc(OCCC2CCN(c3ccc(C)nn3)CC2)cc1	-	neutral red	-	EC50	Rhinovirus	KB	50-525-CV54 (ICAM-1 receptor group 85)	0.008 µM
O=C1c2cc(Cl)ccc2OP(=O)(c2ccccc2)N1c1ccc(Cl)c(Cl)c1	-	-	7 d	MIC	Mycobacterium kansasii	-	My 6509/96	16 µM
N[C@@H](C(=O)N[C@@H]1C(=O)N2C(C(=O)O)=C(Cl)CS[C@H]12)c1ccccc1	-	-	-	MIC50	Haemophilus influenzae	-	38 strains (ampicillin-susceptible)	2 µg/mL
CC(C)=CCOc1ccc(C2CC(=O)c3c(O)cc(O)cc3O2)cc1	100 µg/mL	agar diffusion / agar	-	zone	Candida spp.	-	Candida inconspicua	0 mm
CC1(C)S[C@@H]2[C@H](NC(=O)[C@H](N)c3ccc(O)cc3)C(=O)N2[C@H]1C(=O)O	-	-	-	MIC50	Haemophilus influenzae	-	44 strains	8 µg/mL
COC(=O)[C@H]1[C@@H]2C[C@@H](O[C@@H]3O[C@H](C)[C@@H](O)[C@H](N)[C@@H]3O)/C=C/C=C/C=C/C=C/C=C/C=C/C=C/[C@H](C)[C@@H](O)[C@H](C)[C@H](C)OC(=O)C[C@H](O)C[C@H](O)[C@@H](O)CC[C@H](O)C[C@H](O)C[C@](O)(C[C@@H]1O)O2	5 µg/mL	plaque count	-	inhibition	Vesicular stomatitis virus	F6000	-	1%
C#Cc1c(C(N)=O)ncn1[C@@H]1O[C@H](CO)[C@@H](O)[C@H]1O	-	plaque count	-	EC50	Respiratory syncytial virus	HeLa	TYPE A/FM-58-8	0.18 µg/mL
C#CC[C@@H](C(=O)N[C@H](/C=C/C(=O)OCC)C[C@@H]1CCNC1=O)n1cccc(NC(=O)c2cc(C)on2)c1=O	0.145 µM	cytopathic effect / XTT	-	inhibition	Rhinovirus	H1-HELA	Clinical isolate T (serotype 16)	90%
O=c1cnn([C@@H]2O[C@H](CO)[C@@H](O)[C@H]2O)c(=O)[nH]1	-	virus yield	-	EC90	Dengue virus	VERO	TYPE 4 (YUNH)	<0.3 µg/mL
Cc1cc(=O)c2c(O)c3c(O)cc(O)c4c5c(O)cc(O)c6c(O)c7c(=O)cc(C)c8c1c2c(c34)c(c65)c78	-	cytopathic effect / visual reading	-	EC50	West Nile virus	VERO	NEW YORK	>10 µg/mL
O=C(O)P(=O)(O)O	-	plaque count	-	EC50	Mouse cytomegalovirus	C1271	HPMPC-resistant	37 µM
O=C(Nc1ccc(C(F)(F)F)cc1)c1cc(Cl)ccc1OP(=O)(OCc1ccccc1)OCc1ccccc1	-	-	14 d	MIC	Mycobacterium kansasii	-	My 235/80	32 µM
C=C[C@@H]1C[C@]1(NC(=O)[C@@H]1C[C@@H](Oc2nccc3ccc(Br)cc23)CN1C(C)=O)C(=O)NS(=O)(=O)C1CC1	-	luciferase	-	EC50	Hepatitis C virus	-	1b WT	>3 µM
C[C@@H]1CN(c2c(F)c(N)c3c(=O)c(C(=O)O)cn(C4CC4)c3c2F)C[C@H](C)N1	20 µg/mL	cytopathic effect	-	inhibition	Encephalitozoon cuniculi	MRC-5 fibroblasts	-	66%
CC(C)S(=O)(=O)n1c(N)nc2ccc(/C(=N/O)c3ccccc3)cc21	-	plaque count	-	EC50	Rhinovirus	HeLa	Serotype 70	<0.01 µg/mL
c1cc(CN2CCCNCCNCCCNCC2)ccc1CN1CCCNCCNCCCNCC1	0.5 µM	p24	-	inhibition	HIV-1	PBMC	92US077 CLADE B R5X4	99%
Nc1ncnc2c1ncn2C[C@@H](CO)OCP(=O)(O)O	-	virus yield	-	EC90	Adenovirus	-	13306 (TYPE 8)	1 µg/mL
Nc1ncnc2c1ncn2CCOCP(=O)(O)O	-	cytopathic effect	-	EC50	Varicella zoster virus	HEL	Oka CF1368-resistant	14.3 µM
CO/N=C1\CN(c2nc3c(cc2F)c(=O)c(C(=O)O)cn3C2CC2)CC1CN	-	-	-	MIC90	Haemophilus influenzae	-	38 strains (ampicillin-susceptible)	0.008 µg/mL
C[C@@]1(O)[C@H](O)[C@@H](CO)O[C@H]1c1c[nH]c2c(N)ncnc12	2 µg/mL	MTT	-	inhibition	Hepatitis C virus	HepG2-5B	-	0%
O=C1c2cc(Cl)ccc2OP(=O)(c2ccccc2)N1c1ccc(C(F)(F)F)cc1	-	-	21 d	MIC	Mycobacterium kansasii	-	My 235/80	8 µM
N[C@@H](C(=O)N[C@@H]1C(=O)N2C(C(=O)O)=C(Cl)CS[C@H]12)c1ccccc1	-	-	-	MIC50	Haemophilus influenzae	-	44 strains	1 µg/mL
O=C(Nc1ccc(C(F)(F)F)cc1)c1cc(Br)ccc1OP(=O)(OCc1ccccc1)OCc1ccccc1	-	-	21 d	MIC	Mycobacterium kansasii	-	My 235/80	16 µM
Nc1nc2c(ncn2CCOCP(=O)(O)O)c(=O)[nH]1	-	virus yield	-	EC90	Parainfluenza virus	-	14702 (TYPE 3)	10 µg/mL